In ChEMBL document CHEMBL1122059, “Structural modifications of anguidin and antitumor activities of its analogues” (1982):

Legend:
Mus musculus [1] = experiment: Mice with B16 melanoma surviving on day 60 post implant at dose 0.8 mg/kg
Mus musculus [2] = experiment: Mice with P-388 leukemia surviving on day 30 post implant at dose 0.8 mg/kg
Mus musculus [3] = experiment: Mice with B16 melanoma surviving on day 60 post implant at dose 8.0 mg/kg
Mus musculus [4] = experiment: Mice with L1210 tumor surviving on day 60 post implant at dose 6.4 mg/kg
Mus musculus [5] = experiment: Mice with P-388 leukemia surviving on day 30 post implant at dose 6.4 mg/kg
Mus musculus [6] = experiment: Mice with L1210 tumor surviving on day 60 post implant at dose 2.4 mg/kg
Mus musculus [7] = experiment: Mice with P-388 leukemia surviving on day 30 post implant at dose 1.6 mg/kg
Mus musculus [8] = experiment: Mice with L1210 tumor surviving on day 60 post implant at dose 1.6 mg/kg
Mus musculus [9] = experiment: Mice with B16 melanoma surviving on day 60 post implant at dose 0.5 mg/kg
Mus musculus [10] = experiment: Mice with madisto 109 surviving on day 60 post implant at dose 1.2 mg/kg
Mus musculus [11] = experiment: Mice with madisto 109 surviving on day 60 post implant at dose 0.8-1.6 mg/kg

SMILES: CC(=O)OC[C@]12CCC(C)=CC1OC1C(=O)[C@@H](OC(=O)CCl)[C@@]2(C)C12CO2 (some centres not stated)
- T/C (Mus musculus [1]): 147%
- T/C (Mus musculus [2]): 233%

SMILES: CC1=C[C@H]2OC3[C@H](O)[C@@H](OC(=O)CCl)[C@@](C)(C34CO4)[C@@]2(COC(=O)CCl)CC1 (some centres not stated)
- T/C (Mus musculus [3]): 146%
- T/C (Mus musculus [4]): 175%
- T/C (Mus musculus [5]): 212%

SMILES: C=C(C)C(=O)OC[C@]12CCC(C)=CC1OC1C(=O)[C@@H](OC(=O)CCl)[C@@]2(C)C12CO2 (some centres not stated)
- T/C (Mus musculus [2]): 211%
- T/C (Mus musculus [6]): 183%

SMILES: CC(=O)OC[C@]12CC(=O)C(C)=CC1OC1C(=O)[C@@H](OC(C)=O)[C@@]2(C)C12CO2 (some centres not stated)
- T/C (Mus musculus [7]): 306%
- T/C (Mus musculus [8]): 236%
- T/C (Mus musculus [9]): 177%
- T/C (Mus musculus [10]): 203%
- T/C (Mus musculus [11]): 144%
